Results of unrelated studies side by side (data: NIAID ChemDB).

All rows: whole-cell or culture tests; species: HIV-1; endpoint: EC50

Blank or dashed fields: not listed here. ECn: concentration that inhibits the pathogen or its effect by n%. Rows are shuffled and stem from different studies.

{"SMILES": "C[C@H](NP(=O)(OC[C@H]1C=C[C@@H](n2cnc3c(N)ncnc32)C1)Oc1ccccc1)C(=O)OCC(C)(C)C", "cells": "MT-4", "strain": "IIIB", "read by": "cytopathic effect / MTS", "result": ">4 µM"}
{"SMILES": "Nc1nc(=O)n([C@@H]2CS[C@H](CO)O2)cc1F", "cells": "MT-2", "strain": "Clinical isolate", "mutations": "M41L/M184V/L210W/T215Y", "read by": "recombinant virus assay", "result": ">13.3 µM"}
{"SMILES": "COc1oc([C@H]2C/C(=C/C(C)=C/c3ccc(Cl)cc3Cl)CO2)c(C)c(=O)c1C", "cells": "PBMC + LC5-RIC", "strain": "LAI", "read by": "fluorescence", "result": "0.0036 µM"}
{"SMILES": "CN(C)CCCCN(C[C@H]1Cc2ccccc2CN1)[C@H]1CCCc2cccnc21", "cells": "MAGI-CCR5", "strain": "IIIB", "read by": "MTS", "result": "0.03 µM"}
{"SMILES": "Cc1cn([C@H]2C[C@H](N=[N+]=[N-])[C@@H](CO)O2)c(=O)[nH]c1=O", "cells": "MT-4", "strain": "BI-03.97 (HXB2(RT-A62V S68G T69D V75I F77L F116Y Q151M))", "mutations": "RT-A62V S68G T69D V75I F77L F116Y Q151M", "read by": "cytopathic effect", "result": ">5 µM"}
{"SMILES": "COc1oc([C@H]2C/C(=C/C(C)=C/c3ccc(-c4ccccc4)cc3)CO2)c(C)c(=O)c1C", "cells": "PBMC + LC5-RIC", "strain": "LAI", "read by": "fluorescence", "result": "0.0539 µM"}
{"SMILES": "COC(=O)C(=O)OC1(C(=O)O)C[C@@H](OC(=O)/C=C/c2ccc(O)c(O)c2)C(O)[C@H](OC(=O)/C=C/c2ccc(O)c(O)c2)C1", "cells": "MT-2", "strain": "LAI", "read by": "cytopathic effect / neutral red", "result": "7 µM"}
{"SMILES": "Cc1cn([C@H]2C=C[C@@H](CO)O2)c(=O)[nH]c1=O", "cells": "MAGI (CCR5) + MAGI", "strain": "NL4-3", "mutations": "RT-K103N", "read by": "β-galactosidase", "result": "0.21 µM"}
{"SMILES": "CCn1c(=O)c(C)cn([C@@H]2O[C@H](CO[Si](C)(C)C(C)(C)C)C3(OS(=O)(=O)C=C3N)[C@H]2O[Si](C)(C)C(C)(C)C)c1=O", "cells": "MT-4", "strain": "IIIB Recombinant wild type", "read by": "cytopathic effect / MTT", "result": "0.018 µM"}
{"SMILES": "Cc1ccnc2c1NC(=O)c1cccnc1N2C1CC1", "cells": "CEM", "strain": "IIIB", "read by": "microscopy", "result": "0.032 µM"}
{"SMILES": "CCc1c(C(=O)c2cc(C)cc(C)c2)n(CC2CC=CC2)c(=O)[nH]c1=O", "cells": "PBMC", "strain": "CLADE A", "read by": "cytopathic effect / XTT", "conditions": "clinical isolate", "result": "0.014 µM"}
{"SMILES": "Cc1cccc(Cn2c(Br)nc3cc(Cl)c(Cl)cc32)c1", "cells": "CEM + CEM-SS", "strain": "IIIB", "read by": "plaque count / syncytia", "result": "3.5 µM"}
{"SMILES": "Nc1ncnc2c1ncn2[C@H]1CC[C@@H](CO)O1", "cells": "MT-4", "strain": "IIIB", "read by": "cytopathic effect / p24 / trypan blue", "result": "21 µM"}
{"SMILES": "C=CC(C)(C)c1cc2cc3c(cc2oc1=O)O[C@H](C(C)(C)O)[C@H]3O", "cells": "C8166", "read by": "MTT / syncytia", "result": "0.17 µM"}
{"SMILES": "NCCCCN(C[C@H]1Cc2ccccc2CN1Cc1ccccn1)[C@H]1CCCc2cccnc21", "cells": "MAGI-CCR5", "strain": "IIIB", "read by": "MTS", "result": "0.06 µM"}
{"SMILES": "C=CC(C)(C)c1cc2cc3c(c(CC=C(C)C)c2oc1=O)O[C@H](C(C)(C)O)C3", "cells": "C8166", "read by": "MTT / syncytia", "result": "0.29 µM"}
{"SMILES": "CCCN(C)C(=O)Oc1nsnc1-c1c(Cl)ccc(N)c1Cl", "cells": "MAGI", "strain": "IIIB", "mutations": "RT-T240I", "read by": "MTT", "result": "0.19 µM"}
{"SMILES": "COc1ccc(Cn2c(Br)nc3cc(Cl)c(Cl)cc32)cc1", "cells": "CEM + CEM-SS", "strain": "IIIB", "read by": "plaque count / syncytia", "result": "6 µM"}
{"SMILES": "NCCCCN(C[C@@H]1NCCc2ccccc21)[C@H]1CCCc2cccnc21", "cells": "MAGI-CCR5", "strain": "IIIB", "read by": "MTS", "result": "0.45 µM"}
{"SMILES": "Cc1cn([C@H]2C=C[C@@H](CO)O2)c(=O)[nH]c1=O", "cells": "MT-2", "strain": "Clinical isolate", "mutations": "M41L/D67N/K70R/M184V/L210W/T215Y/K219E", "read by": "recombinant virus assay", "result": "0.912 µM"}
{"SMILES": "COc1ccc2c(c1)N(C(=O)OC(C)C)[C@@H](CSC)C(=S)N2", "cells": "MT-4", "strain": "Recombinant wild type", "read by": "cytopathic effect / MTT", "result": "0.0019 µM"}
{"SMILES": "COc1oc([C@H]2C/C(=C/C(C)=C/c3ccc(S(C)(=O)=O)cc3)CO2)c(C)c(=O)c1C", "cells": "PBMC + LC5-RIC", "strain": "LAI", "read by": "fluorescence", "result": "0.9593 µM"}
{"SMILES": "CCNC(=O)OC[C@H]1O[C@@H](n2cc(C)c(=O)[nH]c2=O)C[C@@H]1N=[N+]=[N-]", "cells": "MT-4", "strain": "899A", "read by": "p24 / antigen / absorbance", "result": "45 µM"}
{"SMILES": "CC(C)Nc1cccnc1N1CCN(C(=O)c2cc3cc(NS(C)(=O)=O)ccc3[nH]2)CC1", "cells": "MT-4", "strain": "LZ-07.96 (HXB2 RT T69N L74I Q151M M184V)", "mutations": "RT-T69N L74I Q151M M184V", "read by": "cytopathic effect", "result": "0.05 µM"}
{"SMILES": "C=C(C)[C@@H]1Cc2cc3ccc(=O)oc3cc2O1", "cells": "C8166", "read by": "MTT / syncytia", "result": "4.33 µM"}
{"SMILES": "NCCCCN(C[C@H]1Cc2ccccc2CN1Cc1ccncc1)[C@H]1CCCc2cccnc21", "cells": "MAGI-CCR5", "strain": "IIIB", "read by": "MTS", "result": "0.06 µM"}
{"SMILES": "Cc1cc(S(N)(=O)=O)ccc1NC(=O)COc1ccc(Cl)cc1C(=O)c1cc(Cl)cc(C#N)c1", "cells": "MAGI", "strain": "NNRTI-resistant (RT G190E)", "mutations": "RT-G190E", "read by": "β-galactosidase", "result": "0.0007 µM"}
{"SMILES": "COc1oc([C@H]2C/C(=C/C(C)=C/c3ccccc3)CO2)c(C)c(=O)c1C", "cells": "PBMC + LC5-RIC", "strain": "LAI", "read by": "fluorescence", "result": "0.0015 µM"}
{"SMILES": "COc1ccc(-c2oc3c4c(cc(O)c3c(=O)c2O)OC(C)(C)CC4)cc1", "cells": "PBMC", "strain": "BK132", "read by": "PCR", "result": "21.1 µM"}
{"SMILES": "COC(=O)[C@H](C)NP(=O)(OC[C@H]1C=C[C@@H](n2cnc3c(N)ncnc32)C1)Oc1ccc(Cl)c(Cl)c1", "cells": "MT-4", "strain": "IIIB", "read by": "cytopathic effect / trypan blue", "result": "0.12 µM"}
{"SMILES": "NCCCCN(C[C@H]1Cc2ccccc2CN1Cc1cccnc1)[C@H]1CCCc2cccnc21", "cells": "MAGI-CCR5", "strain": "IIIB", "read by": "MTS", "result": "0.07 µM"}
{"SMILES": "Nc1nc(=O)n([C@@H]2CS[C@H](CO)O2)cc1F", "cells": "TZM-gfp", "strain": "NL4-3", "mutations": "A114S", "read by": "GFP", "result": "0.54 µM"}
{"SMILES": "Cc1cn([C@H]2C[C@H](N=[N+]=[N-])[C@@H](COC(N)=O)O2)c(=O)[nH]c1=O", "cells": "MT-4", "strain": "899A", "read by": "p24 / antigen / absorbance", "result": "3.2 µM"}
{"SMILES": "Cc1cc(C#N)cc(C)c1Oc1nc(Nc2ccc(C#N)cc2)nc(N)c1Br", "cells": "MT-4", "strain": "NL4-3", "mutations": "Lu164", "read by": "luciferase / RT activity", "result": "0.00012 µM"}
{"SMILES": "NC(N)=NCCCC(=O)NCC1OC(OC2C(NC(=O)CCCN=C(N)N)CC(NC(=O)CCCN=C(N)N)C(OC3CC(NC(=O)CCCN=C(N)N)C(O)C(CO)O3)C2O)C(O)C(O)C1O", "cells": "MT-4", "strain": "NL4-3", "read by": "cytopathic effect / MTT", "result": ">200 µM"}
{"SMILES": "NCCCCN(C[C@H]1Cc2ccccc2CN1Cc1cocn1)[C@H]1CCCc2cccnc21", "cells": "MAGI-CCR5", "strain": "IIIB", "read by": "MTS", "result": "0.04 µM"}
{"SMILES": "CC(=O)c1ccc(C)cc1NC(C(N)=O)c1c(Cl)cccc1Cl", "cells": "MT-4", "strain": "Recombinant mutant", "mutations": "RT-E138A", "read by": "cytopathic effect / MTT", "result": "0.03 µM"}
{"SMILES": "Cc1cn([C@H]2C[C@H](N=[N+]=[N-])[C@@H](COP(=O)(O)O)O2)c(=O)[nH]c1=O", "cells": "MT-4", "strain": "899A", "read by": "p24 / antigen / absorbance", "result": "0.29 µM"}
{"SMILES": "NC(N)=NCCC[C@H](N)C(=O)NC[C@H]1O[C@H](O[C@H]2C(O)[C@@H](O[C@H]3O[C@H](CO)[C@@H](O)[C@H](NC(=O)[C@@H](N)CCCN=C(N)N)[C@H]3O)[C@H](NC(=O)[C@@H](N)CCCN=C(N)N)C[C@@H]2NC(=O)[C@@H](N)CCCN=C(N)N)[C@H](O)[C@@H](O)[C@@H]1O", "cells": "MT-4", "strain": "AOM", "read by": "cytopathic effect / MTT", "result": "67 µM"}
{"SMILES": "C=C(CO)[C@@H]1Cc2cc3ccc(=O)oc3cc2O1", "cells": "C8166", "read by": "MTT / syncytia", "result": "9.08 µM"}
{"SMILES": "Cc1ccnc2c1NC(=O)c1cccnc1N2C1CC1", "cells": "MT-4", "strain": "Recombinant wild type", "read by": "cytopathic effect / MTT", "result": "0.075 µM"}
{"SMILES": "Cc1cn([C@H]2C[C@H](F)[C@@H](CO)O2)c(=O)[nH]c1=O", "cells": "PBMC", "strain": "K AZT-resistant (RT V75I F77L F116Y Q151M)", "mutations": "RT-V75I F77L F116Y Q151M", "read by": "antigen", "result": "0.0049 µM"}
{"SMILES": "Cc1cn([C@@H]2O[C@H](CO[Si](C)(C)C(C)(C)C)[C@@]3(OS(=O)(=O)C=C3N)[C@H]2O[Si](C)(C)C(C)(C)C)c(=O)[nH]c1=O", "cells": "CEM", "strain": "IIIB", "read by": "microscopy", "result": "0.03 µM"}
{"SMILES": "Cc1cn([C@H]2C[C@H](N=[N+]=[N-])[C@@H](CO)O2)c(=O)[nH]c1=O", "cells": "AA5", "strain": "RF", "read by": "p24 / RT activity", "result": "0.001 µM"}
{"SMILES": "COc1oc([C@H]2C/C(=C/C(C)=C/c3ccc(C(C)(C)C)cc3)CO2)c(C)c(=O)c1C", "cells": "PBMC + LC5-RIC", "strain": "LAI", "read by": "fluorescence", "result": "1.261 µM"}
{"SMILES": "O=C(C(=O)N1CCC(=C2c3ccc(Cl)cc3CCc3cccnc32)CC1)c1c[nH]c2c(Br)ncc(F)c12", "cells": "MT-2", "strain": "LAI", "read by": "luciferase / reporter gene / single cycle", "result": ">0.5 µM"}
{"SMILES": "Cc1cn([C@H]2C[C@H](N=[N+]=[N-])[C@@H](COC(=O)N3CCOCC3)O2)c(=O)[nH]c1=O", "cells": "MT-4", "strain": "899A", "read by": "p24 / antigen / absorbance", "result": "35 µM"}
{"SMILES": "NCCCCN(C[C@H]1NCCc2ccccc21)[C@H]1CCCc2cccnc21", "cells": "MAGI-CCR5", "strain": "IIIB", "read by": "MTS", "result": "0.25 µM"}
{"SMILES": "COc1oc([C@H]2C/C(=C/C(C)=C/c3ccc(Oc4ccccc4)cc3)CO2)c(C)c(=O)c1C", "cells": "PBMC + LC5-RIC", "strain": "LAI", "read by": "fluorescence", "result": "0.0417 µM"}
{"SMILES": "COC(=O)[C@H](C)NP(=O)(OC[C@H]1C=C[C@@H](n2cnc3c(N)ncnc32)C1)Oc1ccc([N+](=O)[O-])cc1", "cells": "MT-4", "strain": "IIIB", "read by": "cytopathic effect / MTS", "result": "0.18 µM"}
{"SMILES": "O=[N+]([O-])c1cccc(Cn2c(Cl)nc3cc(Cl)c(Cl)cc32)c1", "cells": "CEM + CEM-SS", "strain": "IIIB", "read by": "plaque count / syncytia", "result": "27 µM"}
{"SMILES": "Cc1ccnc2c1NC(=O)c1cccnc1N2C1CC1", "cells": "MAGI (CCR5) + MAGI", "strain": "HXB2 WT", "read by": "β-galactosidase", "result": "0.022 µM"}
{"SMILES": "Cc1cn([C@H]2C[C@H](N=[N+]=[N-])[C@@H](CO)O2)c(=O)[nH]c1=O", "cells": "CEM + CEM-SS", "strain": "IIIB", "read by": "plaque count / syncytia", "result": "0.0026 µM"}
{"SMILES": "COC(=O)[C@@H](Cc1ccccc1)NP(=O)(OC[C@H]1C=C[C@@H](n2cnc3c(N)ncnc32)C1)Oc1ccccc1", "cells": "MT-4", "strain": "IIIB", "read by": "cytopathic effect / trypan blue", "result": "13.3 µM"}

Repeating the first 7 entries:

SMILES,cells,strain,mutations,read by,conditions,result
C[C@H](NP(=O)(OC[C@H]1C=C[C@@H](n2cnc3c(N)ncnc32)C1)Oc1ccccc1)C(=O)OCC(C)(C)C,MT-4,IIIB,,cytopathic effect / MTS,,>4 µM
Nc1nc(=O)n([C@@H]2CS[C@H](CO)O2)cc1F,MT-2,Clinical isolate,M41L/M184V/L210W/T215Y,recombinant virus assay,,>13.3 µM
COc1oc([C@H]2C/C(=C/C(C)=C/c3ccc(Cl)cc3Cl)CO2)c(C)c(=O)c1C,PBMC + LC5-RIC,LAI,,fluorescence,,0.0036 µM
CN(C)CCCCN(C[C@H]1Cc2ccccc2CN1)[C@H]1CCCc2cccnc21,MAGI-CCR5,IIIB,,MTS,,0.03 µM
Cc1cn([C@H]2C[C@H](N=[N+]=[N-])[C@@H](CO)O2)c(=O)[nH]c1=O,MT-4,BI-03.97 (HXB2(RT-A62V S68G T69D V75I F77L F116Y Q151M)),RT-A62V S68G T69D V75I F77L F116Y Q151M,cytopathic effect,,>5 µM
COc1oc([C@H]2C/C(=C/C(C)=C/c3ccc(-c4ccccc4)cc3)CO2)c(C)c(=O)c1C,PBMC + LC5-RIC,LAI,,fluorescence,,0.0539 µM
COC(=O)C(=O)OC1(C(=O)O)C[C@@H](OC(=O)/C=C/c2ccc(O)c(O)c2)C(O)[C@H](OC(=O)/C=C/c2ccc(O)c(O)c2)C1,MT-2,LAI,,cytopathic effect / neutral red,,7 µM